From US20180280321A1, “COMPOSITIONS AND METHODS THAT INHIBIT QUORUM SENSING” (The Office of Innovation Commercialization, priority 2015, published 2018)

Legend:
[1] = system: S. aureus gene transcription (LAC, LACΔagr); test: Transcriptional analysis of the agr specificity of OHM (qPCR); conditions: 5 μg/mL OHM, five hours, relative to 16S, values shown if ≥2-fold
alpha-hemolysin (Hla) = test: Rabbit red blood cell lysis assay (Hla production); conditions: LAC supernatant, 5 μg/mL OHM

## O=C1c2cc(O)cc(O)c2C(=O)c2c(O)cc(CO)cc21 [OHM, 1,3,8-trihydroxy-6-(hydroxymethyl)anthracene-9,10-dione]
[1]; LAC
  Fold change in gene expression (Vehicle/OHM treatment), NaMDR (SAUSA300_0335): −3.23 fold
  Fold change in gene expression (Vehicle/OHM treatment), mdrA (SAUSA300_2299): <2 fold
  Fold change in gene expression (Vehicle/OHM treatment), norA (SAUSA300_0680): <2 fold
[1]; Δagr
  Fold change in gene expression (Vehicle/OHM treatment), NaMDR (SAUSA300_0335): −2.26 fold
alpha-hemolysin (Hla)
  production of Hla (red blood cell lysis, HA50): inhibited production of Hla
